Test results as given in patent publication EP0352000A2 (SMITHKLINE BECKMAN CORPORATION, priority 1988, dated 1990).
Values joined by “and” are separate entries in the source; they are usually repeats but may differ in a detail not shown here. Equal values may be shown once. Where no end group is shown, it is not given here. [ ]: non-standard residue; d: D form. The star is where a group is joined. Dansyl = CN(C)c1cccc2c(S(=O)(=O)*)cccc12; Cha = N[C@@H](CC1CCCCC1)C(=O)O; Boc = CC(C)(C)OC(=O)*

Test: general procedure: Boc solid-phase peptide synthesis; Merrifield resin; DCC/HOBt
Conditions: whole synthesis, scale 0.5 mmol

Substance	crude mass [mg]
SQNYPVV	248.8

Same assay, conditions: whole synthesis, scale 1.0 mmol

Substance	crude mass [mg]
Ac-Ser-Gln-Asn-Tyr-Pro	458.5

Test: general procedure: Boc solid-phase peptide synthesis; BHA; DCC/HOBt
Conditions: whole synthesis, scale 0.4 mmol

Substance	crude mass [mg]
2-(seryl glutaminylasparaginyl)amino-3-phenylpropyl-prolylvalyl valinamide	192.5

Same assay, conditions: whole synthesis, scale 0.5 mmol

Substance	crude mass [mg]
ANYPVV-NH2	136.6
Ac-AQGYPVV-NH2	275
Ac-DQNYPVR-NH2	404
Ac-SQGYPKV-NH2	280
Ac-SQNYPEV-NH2	184
Ac-SQNYPGV-NH2	153
Ac-SQN[Cha]PVV-NH2	280
Ac-Tyr-Pro-Val-Val-NH₂	98.7
Ac-[dS]GNYPVV-NH2	248
Asn-Tyr-Pro-Val-Val-NH₂	145
Boc-SQNYPEV-NH2	216
SQNYPAV-NH2	202
SQN[Cha]PVV-NH2	316
[dS]QNYPVV-NH2	271

Same assay, conditions: whole synthesis, scale 1.0 mmol

Substance	crude mass [mg]
Ac-Arg-Lys-Ile-Leu-(4′NO₂)Phe-Leu-Asp-Gly-NH₂	980
Ac-RASQNYP-NH2	621
Ac-RKILFLDG-NH2	520
Ac-SQNFPVV-NH2	573
Ac-Ser-Gln-Asn-Tyr-Pro-NH₂	400
DQNYPVV-NH2	671

Same assay, conditions: whole synthesis, scale 1.0 mmol (half of resin used)

Substance	crude mass [mg]
2-(acetyl seryl glutaminyl asparaginyl)amino-3-phenyl-propyl-prolylvalylvalinamide	150

Same assay, conditions: whole synthesis, scale 1 mm

Substance	crude mass [mg]
4-(serylglutaminylasparaginyl)amino-3(R)-hydroxy-1-oxo-5-phenylpentyl-valyl valinamide	85

Test: general procedure: Boc solid-phase peptide synthesis; benzhydrylamine resin (BHA); DCC/HOBt
Conditions: coupling step

Substance	step yield
(1R,2R) 2-(((1S,2S)-1-hydroxy-2-(t-butyloxycarbonyl-(O-phenylmethyl)serylalanylalanyl)amino-3-cyclohexyl)propyl) cyclopentanecarbonyl-valyl valine methyl ester	46% yield
(1S,2S)-2-(((1R,2S)-2-(tert-butyloxycarbonyl-L-(O-phenylmethyl)serylalanylalanyl)amino-1-hydroxy-3-phenyl)propyl)cyclopentylcarbonyl-valyl valine methyl ester	67% yield
(1S,2S)-2-(((1S,2S)-2-(tert-butyloxycarbonyl-L-(O-phenylmethylene)serylalanylalanyl)amino-1-hydroxy-3-phenyl)propyl)cyclopentylcarbonyl-valyl valine methyl ester	65% yield
(3R,4S)-4-(tert-butyloxycarbonyl-(O-benzyl)serylalanylalanyl)amino-2,2-difluoro-3-hydroxy-1-oxo-5-phenylpentylvalyl valine methyl ester	83%
(4S,5S) 5-((carbobenzyloxy-D-seryl)alanylalanyl)amino-4-hydroxy-1-oxo-6-phenylhexyl-valyl valine methyl ester	14% yield
(4S,5S) 5-((carbobenzyloxy-β-alanyl)alanyl)amino-4-hydroxy-1-oxo-6-(4-hydroxyphenyl)hexyl-valyl valine methyl ester	20%
(4S,5S) 5-(carbobenzyloxy-(O-phenylmethyl)serylalanylalanyl) amino-4-hydroxy-1-oxo-6-phenylhexyl-valyl valine methyl ester	52% yield
(4S,5S) 5-(carbobenzyloxyalanylalanyl)amino-4-hydroxy-1-oxo-6-phenylhexyl-valyl valine methyl ester	68% yield
(4S,5S) 5-(tert-butyloxycarbonylalanyl)amino-4-hydroxy-1-oxo-6-(4-hydroxyphenyl)hexyl-valyl valine methyl ester	55%
(4S,5S)-5-(carbobenzyloxyalanyl)amino-4-hydroxy-1-oxo-6-(4-benzyloxyphenyl)hexyl-valyl valine methyl ester	82%
(4S,5S)-5-(carbobenzyloxyalanylalanyl)amino-4-(tert-butyldimethylsiloxy)-6-phenyl-(1-oxo)hexyl-valine isobutylamide	60 % yield
(4S,5S)-5-(carbobenzyloxyalanylalanyl)amino-6-(4-benzyloxy)phenyl-4-hydroxy-(1-oxo)hexyl-valyl valine methyl ester	77%
trans-2-((1-methoxy-1-(2-phenyl-1-(tert-butyloxycarbonyl-(O-phenylmethyl)serylalanylalanyl)amino)ethyl)phosphinyl)cyclopentyl-carbonyl-valyl valine methyl ester	65% yield

Same assay, conditions: late stage modification step

Substance	step yield
4-(tert-butyloxycarbonyl-(O-benzyl)serylalanylalanyl)amino-2,2-difluoro-1,3-dioxo-5-phenylpentyl-valyl valine methyl ester	69% yield
4-(tert-butyloxycarbonyl-serylalanylalanyl)amino-2,2-difluoro-1,3-dioxo-5-phenylpentyl-valyl valine methyl ester	67%
(1S,2S)-2-(((1R,2S)-2-(tert-butyloxycarbonylserylalanylalanyl)amino-1-hydroxy-3-phenyl)propyl)cyclopentylcarbonyl-L-valyl-L-valine methyl ester	90% yield
(1S,2S)-2-(((1S,2S)-2-(tert-butyloxycarbonyl-L-serylalanylalanyl)-amino-1-hydroxy-3-phenyl)propyl)cyclopentanecarbonyl-valyl valine methyl ester	92% yield
(3R,4S)-4-(tert-butyloxycarbonyl-serylalanylalanyl)amino-2,2-difluoro-3-hydroxy-1-oxo-5-phenylpentyl-valyl-L-valine methyl ester	99%
(4S,5S) 5-(alanylalanyl)amino-4-hydroxy-1-oxo-6-cyclohexyl-hexyl-valyl valine methyl ester	62% yield
(4S,5S) 5-(tert-butyloxycarbonylalanyl)amino-4-hydroxy-1-oxo-6-(4-hydroxyphenyl)hexyl-valyl valine methyl ester	70%
(4S,5S) 5-[(O-phenylmethyl)serylalanylalanyl]amino-1-oxo-6-phenylhexyl-valyl valine methyl ester, acetic acid salt	94% yield
(4S,5S)-5-(methoxycarbonyl-alanylalanyl)amino-6-phenyl-4-hydroxy-(1-oxo)hexyl-valyl valine	95% yield
trans-2-((1-methoxy-1-(2-phenyl-1-(tert-butyloxycarbonylserylalanylalanyl)amino)ethyl)phosphinyl)cyclopentylcarbonylvalyl valine methyl ester	93% yield

Same assay, conditions: purification step

Substance	step yield [%]
ASQNYPVV-NH2	75.5
Ac-DQNYPVV-NH2	81.2
Ac-SQGYPVV-NH2	72.5
SQNYPVV-NH2	83.5

Same assay, conditions: purification step; run 1

Substance	step yield
Ac-HQNYPVV-NH2	65.3% and 55.2%

Same assay, conditions: whole synthesis

Substance	crude yield
2-(acetyl seryl glutaminyl asparaginyl)amino-3-phenyl-propyl-prolylvalylvalinamide	37%
2-(seryl glutaminylasparaginyl)amino-3-phenylpropyl-prolylvalyl valinamide	62%
ASQNYPVV-NH2	56.0%
Ac-DQNYPVV-NH2	65.9%
Ac-HQNYPVV-NH2	69.4%
Ac-SANYPVV-NH2	84% yield
Ac-SENYPVV-NH2	67% yield
Ac-SKNYPVV-NH2	81% yield
Ac-SQAYPVV-NH2	55% yield
Ac-SQDYPVV-NH2	80% yield
Ac-SQGYPVV-NH2	50.6%
Ac-SQKYPVV-NH2	77.32% yield
Ac-SQRYPVV-NH2	86% yield
Ac-SQSYPVV-NH2	70% yield
Ac-SRNYPVV-NH2	80% yield
Ac-SSNYPVV-NH2	70% yield
Ac-Ser-Gln-Asn-(4′NO₂)Phe-Pro-Val-Val-NH₂	80% yield
SQNYPVV-NH2	55.9%

Same assay, conditions: whole synthesis, scale 0.5 mmol

Substance	crude mass [mg]	isolated mass [mg]
2-isopropylamino-3-phenyl-propyl-prolylvalyl valinamide	139.6	81.1
AAQNYPVV-NH2	265	
ANYPVV-NH2		116.7
Ac-AQGYPVV-NH2		235
Ac-AQNYPVV-NH2	275	235
Ac-CQNYPVV-NH2	292	188
Ac-SGNYPVV-NH2	167	138
Ac-Ser-Gln-Asn-Tyr-Δ3-Pro-Val-Val-NH₂	250	

Same assay, conditions: whole synthesis, scale 1 mmol

Substance	crude mass [mg]
Ac-ATLNFPISPIE-NH2	862.3

Same assay, conditions: whole synthesis, scale 1 mm

Substance	isolated mass [mg]
4-(serylglutaminylasparaginyl)amino-3(S)-hydroxy-1-oxo-5-phenylpentyl-valyl valinamide	12

Same assay, conditions: whole synthesis, scale One mmole

Substance	crude mass [mg]	isolated mass [mg]
Ac-SQNYPVR-NH2	639	
Ac-SQNY[dP]VV-NH2	406	260

Same assay, conditions: whole synthesis, scale One-half mmole

Substance	crude mass [mg]
Dansyl-SQNYPVV-NH2	290

Same assay, conditions: whole synthesis, scale One-half mole

Substance	crude mass [mg]
Ac-SQAYPVV-NH2	220
